target: S1-T323A/S325A

| Binder | binding result |
| --- | --- |
| Dendritic cell-specific intercellular adhesion molecule-3-grabbing nonintegrin expressed on cells (receptor, whole, on cells; also called DC-SIGN; CD209) MSDSKEPRLQQLGLLEEEQLRGLGFRQTRGYKSLAGCLGHGPLVLQLLSFTLLAGLLVQVSKVPSSISQEQSRQDAIYQNLTQLKAAVGELSEKSKLQEIYQELTQLKAAVGELPEKSKLQEIYQELTRLKAAVGELPEKSKLQEIYQELTWLKAAVGELPEKSKMQEIYQELTRLKAAVGELPEKSKQQEIYQELTRLKAAVGELPEKSKQQEIYQELTRLKAAVGELPEKSKQQEIYQELTQLKAAVERLCHPCPWEWTFFQGNCYFMSNSQRNWHDSITACKEVGAQLVVIKSAEEQNFLQLQSSRSNRFTWMGLSDLNQEGTWQWVDGSPLLPSFKQYWNRGEPNNVGEEDCAEFSGNGWNDDKCNLAKFWICKKSAASCSRDEEQFLSPAPATPNPPPA | binds |
| Liver and lymph node sinusoidal endothelial cell C-type lectin expressed on cells (receptor, whole, on cells; also called LSECtin; CLEC4G) MDTTRYSKWGGSSEEVPGGPWGRWVHWSRRPLFLALAVLVTTVLWAVILSILLSKASTERAALLDGHDLLRTNASKQTAALGALKEEVGDCHSCCSGTQAQLQTTRAELGEAQAKLMEQESALRELRERVTQGLAEAGRGREDVRTELFRALEAVRLQNNSCEPCPTSWLSFEGSCYFFSVPKTTWAAAQDHCADASAHLVIVGGLDEQGFLTRNTRGRGYWLGLRAVRHLGKVQGYQWVDGVSLSFSHWNQGEPNDAWGRENCVMMLHTGLWNDAPCDSEKDGWICEKRHNC | binds |
| Liver/lymph node-specific intercellular adhesion molecule-3-grabbing integrin expressed on cells (receptor, whole, on cells; also called L-SIGN; CLEC4M) MSDSKEPRVQQLGLLEEDPTTSGIRLFPRDFQFQQIHGHKSSTGCLGHGALVLQLLSFMLLAGVLVAILVQVSKVPSSLSQEQSEQDAIYQNLTQLKAAVGELSEKSKLQEIYQELTQLKAAVGELPEKSKLQEIYQELTRLKAAVGELPEKSKLQEIYQELTRLKAAVGELPEKSKLQEIYQELTRLKAAVGELPEKSKLQEIYQELTELKAAVGELPEKSKLQEIYQELTQLKAAVGELPDQSKQQQIYQELTDLKTAFERLCRHCPKDWTFFQGNCYFMSNSQRNWHDSVTACQEVRAQLVVIKTAEEQNFLQLQTSRSNRFSWMGLSDLNQEGTWQWVDGSPLSPSFQRYWNSGEPNNSGNEDCAEFSGSGWNDNRCDVDNYWICKKPAACFRDE | binds |

Source: patent publication US20220089695A1 (NEW YORK UNIVERSITY, published 2022)
